Measurements reported in PubChem BioAssay AID1259414 (Drosophila RNAi Screening Center, 2018)
Screen: 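Host factors increasing or decreasing Wolbachia levels in cultured fly cells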 (primary screen). Cells: Drosophila JW18 cells infected with Wolbachia. Reagent: long dsRNA against Drosophila genes, 0.25 µg dsRNA per well of a 384-well plate. Timing: 5 days. Treatment: cells persistently infected with Wolbachia before knock-down; no added drug. Detection: 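Automated imaging of bacterial rRNA staining divided by host cell count, reported as plate-normalised robust z-score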. Scale: Wolbachia per cell robust z: higher = more Wolbachia per host cell than the plate typical. Call rule: 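Hit when robust z is 1.5 or more, or -1.5 or less, in at least two of three replicates; excludes dsRNAs with several or no targets, genes not expressed in JW18 and well A1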.
The deposit covers about 24,000 reagents; below is a random part of those with a known target gene and a result. Of all reagents, about 1,210 (5%) were called active. 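Inactive calls also include excluded dsRNAs with several or no targets, genes unexpressed in JW18, and well A1, regardless of score.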 Names joined by + are all predicted targets of the reagent. No sequences are given here.

gene knocked down	DRSC id	Wolbachia per cell robust z, rep 1	Wolbachia per cell robust z, rep 2	Wolbachia per cell robust z, rep 3	activity call
Mur11Da (GeneID 318139)	DRSC18960	-0.207	-0.321	0.287	inactive
Jhe (GeneID 36780)	DRSC07174	-0.149	-0.449	0.208	inactive
Jhe (GeneID 36780)	DRSC29206	-0.703	-0.348	-1.64	inactive
Phb1 (GeneID 49168)	DRSC03563	-2.21	-2.06	-10.8	active
Phb1 (GeneID 49168)	DRSC27403	-0.167	-0.3	-0.544	inactive
Acsf2 (GeneID 33766)	DRSC02172	1.02	-3.37	1.24	inactive
Acsf2 (GeneID 33766)	DRSC27832	-0.401	-1.53	-0.453	inactive
brv1 (GeneID 40116)	DRSC11076	-1.79	-1.8	0.257	active
RabX4 (GeneID 42960)	DRSC22189	0.315	0.0138	1.18	inactive
RabX4 (GeneID 42960)	DRSC26360	-0.0498	-7.49	-1.29	inactive
CG30340 (GeneID 246550)	DRSC05167	-2.19	-0.356	0.0718	inactive
Flacc (GeneID 32886)	DRSC20040	1.14	0.276	2.14	inactive
Flacc (GeneID 32886)	DRSC25501	1.96	0.757	2.37	active
beta-Man (GeneID 40524)	DRSC12208	0.537	-1.69	0.61	inactive
beta-Man (GeneID 40524)	DRSC12209	0.378	1.7	0.358	inactive
CG8813 (GeneID 33490)	DRSC00706	-0.0753	-0.67	1.14	inactive
CG8813 (GeneID 33490)	DRSC41527	0.895	0.665	-1.31	inactive
CG32726 (GeneID 318175)	DRSC17521	0.137	0.482	0.277	inactive
CG32726 (GeneID 318175)	DRSC41486	0.0518	-1.93	0.335	inactive
CG32483 (GeneID 318050)	DRSC07902	0.0697	-0.147	0.295	inactive
Vha16-2 (GeneID 39282)	DRSC10873	-0.0305	-0.339	-2.3	inactive
Vha16-2 (GeneID 39282)	DRSC25504	-0.00732	0.378	-1.13	inactive
Ctl1 (GeneID 38523)	DRSC08303	-0.00431	0.32	-0.406	inactive
CG32278 + CG14963	DRSC22203	0.229	0.197	1.14	inactive
CG12054 (GeneID 43694)	DRSC23137	0.925	1.36	0.373	inactive
Ser12 (GeneID 33406)	DRSC00786	-0.314	1.07	-0.0234	inactive
CG13784 (GeneID 34003)	DRSC00974	0.579	0.674	0.448	inactive
mAChR-A (GeneID 37892)	DRSC04702	1.26	0.217	0.396	inactive
mAChR-A (GeneID 37892)	DRSC28262	-0.512	0.159	1.13	inactive
CG34138 (GeneID 4379856)	DRSC38592	0.242	0.392	-0.14	inactive
CG13075 (GeneID 39756)	DRSC09958	0.179	-0.439	-0.537	inactive
CG13075 (GeneID 39756)	DRSC28458	0.356	2.76	0.679	inactive
CG9346 (GeneID 37381)	DRSC04542	-0.555	-0.813	1.09	inactive
CG9346 (GeneID 37381)	DRSC41515	-0.181	-0.515	0.594	inactive
Ir68b (GeneID 39378)	DRSC10251	0.668	0.543	-2.84	inactive
ATPsynO (GeneID 41845)	DRSC16780	-0.188	0.14	0.116	inactive
ATPsynO (GeneID 41845)	DRSC26306	0.148	-0.386	1.23	inactive
dati (GeneID 43789)	DRSC17128	-0.0387	1.68	-1.54	inactive
dati (GeneID 43789)	DRSC17140	0.422	0.853	0.537	inactive
dati (GeneID 43789)	DRSC17153	0.87	-4.74	0.0914	inactive
dati (GeneID 43789)	DRSC25407	0.131	-1.44	-0.619	inactive
CG12535 (GeneID 31311)	DRSC17838	-0.0539	-0.0364	0.0287	inactive
CG14683 (GeneID 41278)	DRSC17035	-9.61	-4.85	0.0459	active
CG42305 + CG17325	DRSC02602	-4.87	-3.32	2.26	inactive
CG16953 (GeneID 42437)	DRSC15167	0.295	-0.326	-0.25	inactive
CG31817 (GeneID 260659)	DRSC01537	-0.622	-0.863	-0.913	inactive
CG31817 (GeneID 260659)	DRSC01538	0.422	-6.12	-0.0492	inactive
CG31817 (GeneID 260659)	DRSC22476	-4.79	-0.769	-1.27	inactive

Called active (from the list above):
gene knocked down	DRSC id	Wolbachia per cell robust z, rep 1	Wolbachia per cell robust z, rep 2	Wolbachia per cell robust z, rep 3	activity call
Phb1 (GeneID 49168)	DRSC03563	-2.21	-2.06	-10.8	active
brv1 (GeneID 40116)	DRSC11076	-1.79	-1.8	0.257	active
Flacc (GeneID 32886)	DRSC25501	1.96	0.757	2.37	active
CG14683 (GeneID 41278)	DRSC17035	-9.61	-4.85	0.0459	active
